Results of unrelated studies side by side (data: NIAID ChemDB).

All rows: growth or infection tests; organism: Mycobacterium tuberculosis

Two numbers with a dash give a range or band. MIC bound comes from a single tested concentration. Conditions beyond the fields shown may differ between rows. An empty or dashed field is not shown. Inhibition is in % at the dose shown (toxicity tests: loss of growth or viability). ECn: concentration that inhibits the pathogen or its effect by n%. MIC50, MIC90 and the like: level of inhibition, or share of isolates inhibited.

structure	mutations	method	strain or isolate	dose	measure	value
CCOC(=O)c1cn2c3c(cccc3c1=O)CC2	-	BACTEC	H37Rv	12.5 µg/mL	inhibition	18%
CO[C@H]1/C=C/O[C@@]2(C)Oc3c(C)c(O)c4c(O)c(cc(O)c4c3C2=O)NC(=O)/C(C)=C\C=C\[C@H](C)[C@H](O)[C@@H](C)[C@@H](O)[C@@H](C)[C@H](OC(C)=O)[C@@H]1C	-	-	H37RV ATCC9360	-	MIC	0.05 µg/mL
NNC(=O)CCC(N)C(=O)NN	-	-	H37Rv	-	MIC	50 µg/mL
CCN(CC)C(=O)COc1cc2c(O)c3c(O)c(C)c4c(c13)C(=O)[C@@](C)(O/C=C/[C@H](OC)[C@@H](C)[C@@H](OC(C)=O)[C@H](C)[C@H](O)[C@H](C)[C@@H](O)[C@@H](C)/C=C/C=C(/C)C(=O)N2)O4	-	-	H37Rv	-	MIC	0.2 µg/mL
C=Cc1cn(COCCO)c(=O)[nH]c1=O	-	-	H37Ra	-	EC50	>100 µg/mL
CCc1cc(C(N)=S)ccn1	-	-	H37Rv	-	MIC	~10 µg/mL
CO[C@H]1/C=C/O[C@@]2(C)Oc3c(C)c(O)c4c(O)c(c5c(c4c3C2=O)NC2(C[C@@H](c3ccccc3)N[C@@H](c3ccccc3)C2)N=5)=NC(=O)/C(C)=C\C=C\[C@H](C)[C@H](O)[C@@H](C)[C@H](O)[C@H](C)[C@H](OC(C)=O)[C@@H]1C	-	-	ATCC 35820 (streptomycin-resistant)	-	MIC	0.02 µg/mL
Cc1ccc(N=Cc2cc(Br)ccc2O)cc1Cl	-	BACTEC	H37Rv	-	MIC bound	>12.5 µg/mL
O=[N+]([O-])c1ccc(OCc2nn3c(-c4ccc(Br)cc4)nnc3s2)cc1	Isoniazid- and rifampin-resistant	-	Clinical isolate MDRTB	-	MIC	4 µg/mL
CC(C)=NNC(=O)CCC1=NNC(=O)CC1	-	-	H37Rv	-	MIC	>500 µg/mL
COc1ccc(OCc2nn3c(-c4ccc(Br)cc4)nnc3s2)cc1	Isoniazid- and rifampin-resistant	-	Clinical isolate MDRTB	-	MIC	8 µg/mL
CO/N=C(\C(=O)N[C@@H]1C(=O)N2C(C(=O)O)=C(COC(C)=O)CS[C@H]12)c1csc(N)n1	-	turbidity	H37Rv	-	MIC	>200 µg/mL
CCCCCc1nc2c(C)c3c4c(c2o1)[C@@H](C)CC[C@@H]4[C@@H](C)C[C@H]3C=C(C)C	-	-	H37Rv	-	MIC	12.5 µg/mL
O=S(=O)(O)c1c(Cl)c(Cl)c(O)c2ncccc12	-	resazurin	H37Rv	6.25 µg/mL	inhibition	1%
CO[C@H]1/C=C/O[C@@]2(C)Oc3c(C)c(O)c4c(O)c(c(/C=N/N5CCN(C)CC5)c(O)c4c3C2=O)NC(=O)/C(C)=C\C=C\[C@H](C)[C@H](O)[C@@H](C)[C@@H](O)[C@@H](C)[C@H](OC(C)=O)[C@@H]1C	-	-	TN1811	-	MIC	>32 µg/mL
CCN(CC)CCN(C)Cc1coc(-c2ccccc2)c1Cl.Cl.Cl	-	BACTEC	H37Rv	12.5 µg/mL	inhibition	99%
CC(=O)NC(CCCCC(=O)NN)C(=O)NN	-	-	H37Rv	-	MIC	>200 µg/mL
CC(=O)/C(N=Nc1ccc(C(=O)N/N=C/c2ccc(O)cc2)cc1)=C(\C)O	-	-	H37Rv	12.5 µg/mL	inhibition	52%
CN1C=NC2C(=O)N=NC(=O)C21	-	BACTEC	H37Rv	12.5 µg/mL	inhibition	0%
Nc1cn(COCCO)c(=O)[nH]c1=O	-	-	H37Ra	-	EC50	>100 µg/mL
Cc1ccc(-n2cc(-c3ccc(Cl)cc3)c3c(NN)ncnc32)cc1	-	BACTEC	H37Rv	12.5 µg/mL	inhibition	94%
NNC(=O)CCC1=NNC(=O)CC1	-	-	H37Rv	-	MIC	>500 µg/mL
Cc1c(C(=O)CC(=O)C(=O)Nc2ccc(Cl)c(Cl)c2)[n+](=O)c2ccccc2n1[O-]	-	BACTEC	H37Rv	12.5 µg/mL	inhibition	51%
CC1(C)C=Cc2c(cc(O)c3c(O)c4cc5c6c(c(=O)cc(O)c6c4oc23)OC5(C)C)O1	-	-	-	-	MIC	25 µg/mL
CN(C)CCN(C)P12(Oc3ccccc3O1)Oc1c(Cl)c(Cl)c(Cl)c(Cl)c1O2	-	BACTEC	H37Rv	-	MIC bound	>6.25 µg/mL
[N-]=[N+]=NC(CBr)c1cn(COC(CO)CO)c(=O)[nH]c1=O	-	-	H37Ra	-	EC50	>100 µg/mL
Fc1ccc(OCc2nn3c(-c4ccc(Br)cc4)nnc3s2)cc1	Isoniazid- and rifampin-resistant	-	Clinical isolate MDRTB	-	MIC	8 µg/mL
C=C1CCC[C@@H]2[C@@](C)(CC3=CC(=O)C=CC3=O)[C@H](C)CC[C@]12C	-	BACTEC	H37Rv	-	MIC bound	≤128 µg/mL
c1ccc(-c2ccccn2)nc1	-	resazurin / absorbance	H37Rv	-	MIC90	160.1 µM
O=C(NNC1=NS(=O)(=O)c2ccccc2N1c1ccccc1)c1cnccn1	-	-	H37Rv (ATCC 27294)	-	MIC	8 µg/mL
CCCCCCCCCCC#Cc1cn(COCCO)c(=O)n(C#CCCCCCCCCCC)c1=O	-	-	H37Ra	-	EC50	>100 µg/mL
COC(=O)C1(O)CC(=O)c2c1ccc1c(=O)c3c(O)cc4c(c3oc21)C=CC(C)(C)O4	-	-	-	-	MIC	12.5 µg/mL
CC[C@H]1OC(=O)[C@H](C)[C@@H](O[C@H]2C[C@@](C)(OC)[C@@H](O)[C@H](C)O2)[C@H](C)[C@@H](O[C@@H]2O[C@H](C)C[C@H](N(C)C)[C@H]2O)[C@](C)(OC)C[C@@H](C)C(=O)[C@H](C)[C@@H](O)[C@]1(C)O	-	turbidity	H37Rv	-	MIC	12.5–48 µg/mL
C[N+](C)(C)CC(=O)N/N=C(\Cc1cc(=O)oc2cc(O)ccc12)C(=O)Nc1ccc(Cl)cc1.[Cl-]	-	BACTEC	H37Rv	-	MIC bound	>12.5 µg/mL
Nc1ccc(C(=O)N/N=C/c2ccccc2)cc1	-	-	H37Rv	-	MIC	>12.5 µg/mL
CC1=NN(c2ccccc2)C(=O)C1N=Nc1ccc(S(=O)(=O)Nc2ncccn2)cc1	-	BACTEC	H37Rv	12.8 µg/mL	inhibition	13%
O=C(O)CCCCCC(=O)O	-	-	H37Rv	-	MIC	>100 µg/mL
CO[C@H]1/C=C/O[C@@]2(C)Oc3c(C)c(O)c4c(O)c(c(/C=N/N5CCN(C)CC5)c(O)c4c3C2=O)NC(=O)/C(C)=C\C=C\[C@H](C)[C@H](O)[C@@H](C)[C@@H](O)[C@@H](C)[C@H](OC(C)=O)[C@@H]1C	-	-	H37RA 16	-	MIC	1 µg/mL
Cc1cc(C)c2ccc(NN=O)nc2n1	-	BACTEC	H37Rv	12.5 µg/mL	inhibition	78%
Fc1cnccc1-c1nnc2sc(COc3ccccc3)nn12	Isoniazid- and rifampin-resistant	-	Clinical isolate MDRTB	-	MIC	2 µg/mL
Nc1ccc(C(=O)N/N=C/c2ccc(O)cc2)cc1	-	-	H37Rv	-	EC50	>12.5 µg/mL
N[C@H](C(=O)O)[C@H]1ON=C(Cl)[C@@H]1O	-	-	INH-r	-	MIC	12.5 µg/mL
Nc1ccc(C(=O)N/N=C/c2ccc(F)cc2)cc1	-	-	H37Rv	-	MIC	>12.5 µg/mL
c1ccc(-c2c3c(nc4ccccc24)CCC3)cc1	-	resazurin	H37Rv	-	MIC99	3.25 µg/mL
NNC(=O)CS(=O)(=O)Nc1ncccn1	-	BACTEC	H37Rv	12.5 µg/mL	inhibition	24%
Nc1ncnc2c1c(-c1cccc3c1oc1ccccc13)cn2[C@@H]1O[C@H](CO)[C@@H](O)[C@H]1O	-	broth dilution	My 331/88	-	MIC	16 µM
Cc1cc(Cl)ccc1OCc1nn2c(-c3ccc(Br)cc3)nnc2s1	Isoniazid- and rifampin-resistant	-	Clinical isolate MDRTB	-	MIC	8 µg/mL
CCn1cc(C(=O)O)c(=O)c2cc(F)c(N3CCN(c4nnc(SCC(=O)c5ccc(N)cc5)s4)C(C)C3)c(OC)c21	-	broth dilution	H37Rv	-	MIC90	10 µg/mL
CC(=O)/C(N=Nc1ccc(C(=O)N/N=C/c2ccccc2)cc1)=C(\C)O	-	-	H37Rv	-	EC50	>12.5 µg/mL
CN(Cc1cnc2nc(N)nc(N)c2n1)c1cc(Cl)c(C(=O)N[C@@H](CCC(=O)O)C(=O)O)c(Cl)c1	-	BACTEC	H37Rv	-	MIC bound	>12.5 µg/mL
Clc1ccc(-c2nnc3sc(COc4ccc5ccccc5c4)nn23)cc1	Isoniazid- and rifampin-resistant	-	Clinical isolate MDRTB	-	MIC	8 µg/mL
CCCCN1[C@@H](c2ccccc2)CC2(C[C@H]1c1ccccc1)N=c1c(c3c4c5c(C)c(O)c3c(O)c1=NC(=O)/C(C)=C\C=C\[C@H](C)[C@H](O)[C@@H](C)[C@H](O)[C@H](C)[C@H](OC(C)=O)[C@H](C)[C@@H](OC)/C=C/O[C@@](C)(O5)C4=O)N2	-	-	H37Rv	-	MIC	0.02 µg/mL
O=[N+]([O-])c1cn2c(n1)OC[C@@H](OCc1ccc(OC(F)(F)F)cc1)C2	-	-	UT26	-	MIC	0.012 µg/mL
CC(=O)/C(N=Nc1ccc(C(=O)N/N=C/c2ccncc2)cc1)=C(\C)O	-	-	H37Rv	-	EC50	>12.5 µg/mL
O=c1[nH]c(=O)n(COCCO)cc1Cl	-	-	H37Ra	-	EC50	>100 µg/mL
Cc1ncc([N+](=O)[O-])n1CCNC(=O)CCCCn1ccnc1[N+](=O)[O-]	-	resazurin	H37Rv	-	MIC bound	>6.25 µg/mL
CCOC(=O)CCC(=O)CCC(=O)OCC	-	-	H37Rv	-	MIC	500 µg/mL
CCOc1ccc2c(c1)n([O-])c1cc(Cl)ccc1[n+]2=O	-	-	KM-R	-	MIC	0.8 µg/mL
NNC(=O)CCCCCC(=O)O	-	-	H37Rv	-	MIC	50 µg/mL
C=C(C)C1CC2C(=O)c3c(O)cc(O)cc3OC2c2c(O)c3c(c(O)c21)OC(C)(C)C=C3	-	-	-	-	MIC	50 µg/mL
CC(=O)/C(N=Nc1ccc(C(=O)N/N=C/c2ccc(N(C)C)cc2)cc1)=C(\C)O	-	-	H37Rv	-	MIC	>12.5 µg/mL
CCn1cc(C(=O)O)c(=O)c2cc(F)c(N3CCN(c4nnc(SCC(=O)c5ccccc5)s4)C(C)C3)c(OC)c21	-	broth dilution	H37Rv	20 µg/mL	inhibition	0%
[N-]=[N+]=NC(CCl)c1cn(COC(CO)CO)c(=O)[nH]c1=O	-	-	H37Ra	-	EC50	>100 µg/mL
COc1ccc(CNc2nc(=O)c3cc(C(F)(F)F)cc([N+](=O)[O-])c3o2)cc1OC	-	resazurin	H37Rv	-	MIC90	29.22 µg/mL
CO[C@H]1/C=C/O[C@@]2(C)Oc3c(C)c(O)c4c(O)c(c5c(c4c3C2=O)NC2(CCNCC2)N=5)=NC(=O)/C(C)=C\C=C\[C@H](C)[C@H](O)[C@@H](C)[C@@H](O)[C@@H](C)[C@H](OC(C)=O)[C@@H]1C	-	-	ATCC 35820 (streptomycin-resistant)	-	MIC	0.02 µg/mL
COc1ccc2[nH]c3c(C)c4ccncc4c(C)c3c2c1	-	-	PZA-R	-	MIC	0.4 µg/mL
O=c1[nH]c(=O)n(COCCO)cc1I	-	-	H37Ra	-	EC50	>100 µg/mL
CC(=O)/C(N=Nc1ccc(C(=O)N/N=C/C=C/c2ccc(N(C)C)cc2)cc1)=C(\C)O	-	-	H37Rv	12.5 µg/mL	inhibition	76%
CC[C@H]1OC(=O)[C@H](C)[C@@H](O[C@H]2C[C@@](C)(OC)[C@@H](O)[C@H](C)O2)[C@H](C)[C@@H](O[C@@H]2O[C@H](C)C[C@H](N(C)C)[C@H]2O)[C@](C)(O)C[C@@H](C)C(=O)[C@H](C)[C@@H](O)[C@]1(C)O	-	turbidity	H37Rv	-	MIC	200–800 µg/mL
O=C1c2scnc2-c2nccc3c2c1nc1ccccc13	-	resazurin	H37Rv	6.25 µg/mL	inhibition	101%
[N-]=[N+]=NC(CCl)c1cn(COCCO)c(=O)[nH]c1=O	-	-	H37Ra	-	EC50	>10 µg/mL
C[C@]1(COc2ccc(N3CCC(Oc4ccc(OC(F)(F)F)cc4)CC3)cc2)Cn2cc([N+](=O)[O-])nc2O1	-	-	H37Rv	-	MIC	0.024 µg/mL
CCn1cc(C(=O)O)c(=O)c2cc(F)c(N3CCN(c4nnc(SCC(=O)c5ccc([N+](=O)[O-])cc5)s4)C(C)C3)c(OC)c21	-	broth dilution	H37Rv	-	MIC90	1.5 µg/mL
Nc1nnc(-c2ccc(Nc3nc4ccccc4[nH]3)c([N+](=O)[O-])c2)s1	-	BACTEC	-	0.5 µM	inhibition	0%
CCOC(=O)c1noc(/C=C/c2ccccc2)c1C(=O)c1ccccc1	-	resazurin	ATCC 27294	-	MIC	58.2 µM

Repeating the final 6 entries:

structure | mutations | method | strain or isolate | dose | measure | value
O=C1c2scnc2-c2nccc3c2c1nc1ccccc13 | - | resazurin | H37Rv | 6.25 µg/mL | inhibition | 101%
[N-]=[N+]=NC(CCl)c1cn(COCCO)c(=O)[nH]c1=O | - | - | H37Ra | - | EC50 | >10 µg/mL
C[C@]1(COc2ccc(N3CCC(Oc4ccc(OC(F)(F)F)cc4)CC3)cc2)Cn2cc([N+](=O)[O-])nc2O1 | - | - | H37Rv | - | MIC | 0.024 µg/mL
CCn1cc(C(=O)O)c(=O)c2cc(F)c(N3CCN(c4nnc(SCC(=O)c5ccc([N+](=O)[O-])cc5)s4)C(C)C3)c(OC)c21 | - | broth dilution | H37Rv | - | MIC90 | 1.5 µg/mL
Nc1nnc(-c2ccc(Nc3nc4ccccc4[nH]3)c([N+](=O)[O-])c2)s1 | - | BACTEC | - | 0.5 µM | inhibition | 0%
CCOC(=O)c1noc(/C=C/c2ccccc2)c1C(=O)c1ccccc1 | - | resazurin | ATCC 27294 | - | MIC | 58.2 µM